Anti-infective test results gathered from many reports (values: NIAID ChemDB through PubChem).

Shared fields: host cell toxicity; cells: PBMC; method: MTT; read-out: CC50

CCn is the concentration with n% toxicity to the cells. Neighbouring rows are from separate reports.

smiles	value
Nc1nc(NC2CC2)c2ncn([C@H]3CO[C@@H](CO)O3)c2n1	>100 µM
Cc1cn([C@H]2C=C(F)[C@@H](CO)S2)c(=O)[nH]c1=O	>100 µM
CCCCC1(CCCC)OCC(C)(CSc2ccc(Cl)cc2)OO1	>100 µM
Nc1nc2c(ncn2[C@@H]2OC[C@@](/C=C/P(=O)(O)O)(CO)[C@@H]2F)c(=O)[nH]1	>100 µM
Cc1cn([C@H]2C[C@H](N=[N+]=[N-])[C@@H](CO)O2)c(=O)[nH]c1=O	>100 µM
Nc1ncnc2c1ncn2[C@@H]1OC[C@@](/C=C/P(=O)(O)O)(CO)[C@@H]1F	>100 µM
COc1cc(OC)nc(N2C(=O)CSC2c2c(F)cccc2Cl)n1	55 µg/mL
Nc1ncnc2c1ncn2[C@H]1C=C(F)[C@@H](CO)S1	>100 µM
Cc1cn([C@H]2C[C@H](N=[N+]=[N-])[C@@H](CO)O2)c(=O)[nH]c1=O	450 µg/mL
Cc1ccnc2c1NC(=O)c1cccnc1N2C1CC1	122 µg/mL
CC1(C)CC[C@]2(C(=O)O)CC[C@]3(C)C(=CC[C@@H]4[C@@]5(C)CC[C@H](O[C@@H]6OC[C@@H](O)[C@H](OC7O[C@H](CO)[C@H](O)[C@H](O)[C@H]7O)[C@H]6O)C(C)(C)[C@@H]5CC[C@]43C)[C@@H]2C1	10.11 µg/mL
O=c1[nH]cnc2c1ncn2[C@H]1C=C(F)[C@@H](CO)S1	>100 µM
COc1nc(N)nc2c1ncn2[C@H]1CO[C@@H](CO)O1	>100 µM
Nc1ncnc2c1ncn2[C@H]1CC[C@](OCP(=O)(O)O)(C(F)(F)F)C1	90 µM
CNc1nc(N)nc2c1ncn2[C@H]1CO[C@@H](CO)O1	>100 µM
Nc1ncnc2c([C@H]3CC[C@](CO)(C(F)(F)F)C3)c[nH]c12	>100 µM
O=c1[nH]cnc2c1ncn2[C@@H]1C=C(F)[C@H](CO)S1	>100 µM
CC1(CSc2ccc(Cl)cc2)COC2(C[C@H]3CC(=O)C[C@H]3C2)OO1	>100 µM
CCNc1nc(N)nc2c1ncn2[C@H]1CO[C@@H](CO)O1	99.5 µM

Repeating the final 2 entries:

smiles	value
CC1(CSc2ccc(Cl)cc2)COC2(C[C@H]3CC(=O)C[C@H]3C2)OO1	>100 µM
CCNc1nc(N)nc2c1ncn2[C@H]1CO[C@@H](CO)O1	99.5 µM